Anti-infective test results gathered from many reports (values: NIAID ChemDB through PubChem).

Shared fields: target-level tests

ICn: concentration for n% inhibition.

structure | read-out | strain | target | dose | agent | result
CC(NC(=O)c1ccc2c(c1)nc(-c1ccoc1)n2C1CCCCC1)C(=O)Nc1cccc(C(=O)O)c1 | IC50 |  | NS5B polymerase |  | Hepatitis C virus | 0.5–5 µM
CNC(=O)c1c(-c2ccc(F)cc2)oc2cc(N(C)S(C)(=O)=O)c(OCc3csc(C)n3)cc12 | IC50 |  | Nonstructural protein 5B |  | Hepatitis C virus | ≤0.5 µM
O=C(O)/C=C/c1ccc(NC(=O)C2(NC(=O)c3ccc4c(c3)nc(-c3ccccn3)n4C3CCCC3)CCCC2)cc1 | IC50 |  | NS5B polymerase |  | Hepatitis C virus | 0.5–5 µM
CCC[C@]1(CC(=O)O)OCCc2c1[nH]c1c(C)ccc(C#N)c21 | IC50 | 320-3-1 genotype 1B | NS5B polymerase |  | Hepatitis C virus | 0.4 µM
CCOC(=O)/C=C/c1ccc(NC(=O)C2(NC(=O)c3ccc4c(c3)nc(-c3ccoc3)n4C3CCCCC3)CCCC2)cc1 | IC50 |  | NS5B polymerase |  | Hepatitis C virus | 5–25 µM
CNC(=O)c1c(-c2ccc(F)cc2)oc2cc(N(C)S(C)(=O)=O)c(-c3cccs3)cc12 | IC50 |  | Nonstructural protein 5B |  | Hepatitis C virus | ≤0.5 µM
COc1nc(Nc2ccc3cn[nH]c3c2)nc(NN2CCN(C)CC2)n1 | inhibition |  | DNA polymerase | 0.01 µg/mL | Hepatitis B virus | 2%
CCN1CCC(NC(=O)c2ccc3c(c2)nc(-c2ccoc2)n3C2CCCCC2)(C(=O)Nc2ccc(-c3nc(C(=O)O)cs3)cc2)CC1 | IC50 |  | NS5B polymerase |  | Hepatitis C virus | <0.5 µM
CC(C)Oc1cc2c(C(=O)NC3CC3)c(-c3ccc(F)cc3)oc2cc1NS(C)(=O)=O | IC50 |  | Nonstructural protein 5B |  | Hepatitis C virus | ≤0.5 µM
NCc1cccc(S(=O)(=O)NC(=O)Nc2cscc2-c2nc(C(=O)O)c(O)c(=O)[nH]2)c1 | IC50 |  | HCV polymerase |  | Hepatitis C virus | <25 µM
O=C(O)CCCC(=O)N[C@H](C(=O)N[C@@H](CCC(=O)O)C(=O)N[C@@H](CCC(=O)O)C(=O)N[C@@H](CS)C(=O)O)C1CCCCC1 | inhibition |  | Nonstructural protein 3 NTPase/helicase | 16.7 µM | Hepatitis C virus | 91%
O=C(Nc1ccsc1-c1nc(C(=O)O)c(O)c(=O)[nH]1)OCc1ccc(Oc2ccccc2)cc1 | IC50 |  | HCV polymerase |  | Hepatitis C virus | <25 µM
O=C(O)CCC(=O)N[C@H](C(=O)N[C@@H](CCC(=O)O)C(=O)N[C@@H](CCC(=O)O)C(=O)NC1(C(=O)O)CC1)C(c1ccccc1)c1ccccc1 | IC50 |  | Nonstructural protein 3 NTPase/helicase |  | Hepatitis C virus | >83.5 µM
Nc1ccc(S(=O)(=O)Nc2ccccc2-c2nc(C(=O)O)c(O)c(=O)[nH]2)cc1Cl | IC50 |  | HCV polymerase |  | Hepatitis C virus | <100 µM
CCOC(=O)N1CCN(c2nc(Nc3ccc4[nH]ncc4c3)nc(OC)n2)CC1 | inhibition |  | DNA polymerase | 0.01 µg/mL | Hepatitis B virus | 2%
O=C(O)CCC(=O)N[C@H](C(=O)N[C@@H](CCC(=O)O)C(=O)N[C@@H](CCC(=O)O)C(=O)NC1(C(=O)O)CC1)C1CCCCC1 | IC50 |  | Nonstructural protein 3 NTPase/helicase |  | Hepatitis C virus | >83.5 µM
Cc1cc2c(cc1C(=O)N[C@H](C)C(=O)Nc1ccc(/C=C/C(=O)O)cc1)nc(-c1ccoc1)n2C1CCCCC1 | IC50 |  | NS5B polymerase |  | Hepatitis C virus | 0.5–5 µM
O=C(CNc1ccsc1-c1nc(C(=O)O)c(O)c(=O)[nH]1)Nc1ccccc1Cl | IC50 |  | HCV polymerase |  | Hepatitis C virus | <25 µM
COc1nc(NCCc2ccccn2)nc(Nc2ccc3cn[nH]c3c2)n1 | inhibition |  | DNA polymerase | 1 µg/mL | Hepatitis B virus | 48%
CC(=O)N[C@@H](CCC(=O)O)C(=O)N[C@@H](CCC(=O)O)C(=O)N[C@@H](CS)C(=O)O | inhibition |  | Nonstructural protein 3 NTPase/helicase | 16.7 µM | Hepatitis C virus | 15%
O=C(Cc1c[nH]c2ccccc12)Nc1ccsc1-c1nc(C(=O)O)c(O)c(=O)[nH]1 | IC50 |  | HCV polymerase |  | Hepatitis C virus | <25 µM
CC[C@H](C)[C@H](NC(=O)[C@H](CC(C)C)NC(=O)CCCC(=O)O)C(=O)N[C@@H](CC1CCCCC1)C(=O)NC1(C(=O)O)CC1 | inhibition |  | Nonstructural protein 3 NTPase/helicase | 83.5 µM | Hepatitis C virus | 3%
CCOC(=O)C1CCN(c2nc(Nc3ccc4[nH]ncc4c3)nc(OC)n2)CC1 | inhibition |  | Nonstructural protein 5B | 1 µg/mL | Hepatitis C virus | 15%
C[C@H](NC(=O)c1ccc2c(c1)nc(-c1ccoc1)n2C1CCCCC1)C(=O)Nc1ccc(/C=C/C(=O)O)cc1 | IC50 |  | NS5B polymerase |  | Hepatitis C virus | <0.5 µM
O=C(Nc1cscc1-c1nc(C(=O)O)c(O)c(=O)[nH]1)NS(=O)(=O)c1ccc(F)cc1 | IC50 |  | HCV polymerase |  | Hepatitis C virus | <25 µM
O=C(O)CCC(=O)N[C@@H](CCC(=O)O)C(=O)N[C@@H](CCC(=O)O)C(=O)NC1(C(=O)O)CC1 | inhibition |  | Nonstructural protein 3 NTPase/helicase | 83.5 µM | Hepatitis C virus | 11%
C=C1[C@H](COP(=O)(O)OP(=O)(O)OP(=O)(O)O)[C@@H](O)C[C@@H]1n1cnc2c(=O)[nH]c(N)nc21 | IC50 | WILD TYPE | DNA polymerase |  | Hepatitis B virus | 0.00043 µM
CC(C)(C)OC(=O)N1CCC(NC(=O)c2ccc3c(c2)nc(-c2ccoc2)n3C2CCCCC2)(C(=O)Nc2ccc(/C=C/C(=O)O)cc2)CC1 | IC50 |  | NS5B polymerase |  | Hepatitis C virus | <0.5 µM
O=C(O)CCC(=O)N[C@H](C(=O)N[C@@H](CCC(=O)O)C(=O)N[C@@H](Cc1ccc2ccccc2c1)C(=O)N[C@@H](CS)C(=O)O)C1CCCCC1 | inhibition |  | Nonstructural protein 3 NTPase/helicase | 167 µM | Hepatitis C virus | 100%
CNC(=O)c1c(-c2ccc(F)cc2)oc2cc(N3CCOCC3)c(OCc3cccc(C(=O)OC)c3)cc12 | IC50 |  | Nonstructural protein 5B |  | Hepatitis C virus | ≤0.5 µM
CC[C@H](C)[C@H](NC(=O)[C@@H](NC(=O)CCC(=O)O)C1CCCCC1)C(=O)N[C@@H](CC1CCCCC1)C(=O)NC1(C(=O)O)CC1 | IC50 |  | Nonstructural protein 3 NTPase/helicase |  | Hepatitis C virus | >83.5 µM
O=C(Nc1ccsc1-c1nc(C(=O)O)c(O)c(=O)[nH]1)NC(COCc1ccccc1)c1ccccc1 | IC50 |  | HCV polymerase |  | Hepatitis C virus | <25 µM
COc1nc(NCCN2CCOCC2)nc(Nc2ccc3cn[nH]c3c2)n1 | inhibition |  | DNA polymerase | 0.01 µg/mL | Hepatitis B virus | 49%
NC(=O)CC[C@H](NC(=O)[C@@H](NC(=O)CCC(=O)O)C1CCCCC1)C(=O)N[C@@H](CC1CCCCC1)C(=O)N[C@@H](CS)C(=O)O | IC50 |  | Nonstructural protein 3 NTPase/helicase |  | Hepatitis C virus | <16.7 µM

The first 2 rows once more:

structure,read-out,strain,target,dose,agent,result
CC(NC(=O)c1ccc2c(c1)nc(-c1ccoc1)n2C1CCCCC1)C(=O)Nc1cccc(C(=O)O)c1,IC50,,NS5B polymerase,,Hepatitis C virus,0.5–5 µM
CNC(=O)c1c(-c2ccc(F)cc2)oc2cc(N(C)S(C)(=O)=O)c(OCc3csc(C)n3)cc12,IC50,,Nonstructural protein 5B,,Hepatitis C virus,≤0.5 µM

An empty or dashed field is not shown. Two numbers with a dash give a range or band. Lines come from different laboratories, so protocols vary. Percent inhibition refers to the dose given; in toxicity tests it is the harm to the cells.